Target: cytoplasmic tail of glycoprotein E fused to the C-terminus of GST (GST-gECT) (HSV-1)
Assay: pull-down

Substance	binding efficiency (% of wild-type VP22-GFP) [%]
VP22 W221F fused to the N-terminus of GFP (from UniProt P10233 1-301) (natural protein)	54
VP22 F196W fused to the N-terminus of GFP (from UniProt P10233 1-301) (natural protein)	140
